Results of unrelated studies side by side (data: NIAID ChemDB).

Shared fields: whole-cell or culture tests; species: Hepatitis B virus

Two numbers with a dash give a range or band. ECn: concentration that inhibits the pathogen or its effect by n%. An empty or dashed field is not shown. Lines come from different laboratories, so protocols vary.

compound	conditions	changes	strain or isolate	endpoint	cell line	read by	value
C[C@H](NC(=O)c1c2n(c(=O)n1-c1ccc(OC3CC3)cc1)CCN(C(=O)c1ccc(Br)c(Cl)c1)C2)c1ccc(OC(F)(F)F)cc1	-	-	-	EC50	HepG2.117	PCR	0.5–5 µM
C[C@H](NC(=O)C(=O)N1CCC2(COc3c(cn(C)c3C(=O)Nc3ccc(F)c(F)c3)S(=O)(=O)N2)C1)C(F)(F)F	-	-	Genotype D	EC50	HepAD38	PCR	<0.5 µM
CNC(=O)c1cc(-n2c(=O)c3c(n4ncc(CC(C)C)c24)CN(C(=O)c2ccc(Br)c(C(F)(F)F)c2)[C@@H](C)C3)nn1C	-	-	-	EC50	HepG2.117	luminescence	≤0.05 µM
C[C@@H](NC(=O)C(=O)N1CCC2(CC1)COc1c(cn(C)c1C(=O)Nc1ccc(F)c(C(F)F)c1)S(=O)(=O)N2)C(F)(F)F	-	-	Genotype D	EC50	HepAD38	PCR	<0.5 µM
C[C@@H](NC(=O)C(=O)N1C[C@H]2COc3c(c(Cl)n(C)c3C(=O)Nc3ccc(F)c(Cl)c3)S(=O)(=O)N[C@H]2C1)C(F)(F)F	-	-	-	EC50	HepAD38	PCR	<0.5 µM
CCOC(=O)C1=C(CN2CC(F)(F)[C@@H]3[C@H]2CON3C[C@@H](O)C(C)(C)C(=O)O)NC(c2nccs2)=N[C@H]1c1cccc(F)c1C	-	-	-	EC50	HepG2.2.15	PCR	0.034 µM
C[C@@H]1Cc2c(n3ncc(Cc4ccccc4)c3n(-c3ccc(-n4ccc(C(F)(F)F)n4)cc3)c2=O)CN1C(=O)c1ccc(Br)c(C(F)(F)F)c1	-	-	-	EC50	HepG2.117	luminescence	0.05–0.5 µM
O=C(Nc1ccc(F)c(Cl)c1)N1CCc2c(n3nccc3n(Cc3ccccc3)c2=O)C1	3 d	-	-	EC50	HepG2.117	PCR	0.5–5 µM
COC(=O)C1=C(CN2CC(F)(F)[C@@H]3[C@H]2CON3CC(F)(F)C(C)(C)C(=O)O)NC(c2nccs2)=N[C@H]1c1ccc(F)c(F)c1C	-	-	-	EC50	HepG2.2.15	PCR	0.014 µM
CNc1n[nH]c2cc(-n3c(=O)c4c(n5ncc(CC(C)C)c35)CN(C(=O)c3ccc(Br)c(C(F)(F)F)c3)[C@@H](C)C4)ccc12	-	-	-	EC50	HepG2.117	luminescence	0.05–0.5 µM
COc1ccc(CN2CCCn3c(c4n(c3=O)CCN(C(=O)c3ccc(Br)c(Cl)c3)C4)C2=O)cc1	-	-	-	EC50	HepG2.2.15	PCR	0.1–0.5 µM
Cc1cc(NC(=O)c2c3c(cn2C)S(=O)(=O)N[C@H]2CN(C(=O)C(=O)NC4(C(F)(F)F)CCC4)C[C@H]2CO3)ccc1F	-	-	-	EC50	HepAD38	PCR	<0.5 µM
CNc1ccc(-n2c(C(=O)NCc3ccccc3)c3n(c2=O)CCN(C(=O)c2ccc(Br)c(Cl)c2)C3)cc1	-	-	-	EC50	HepG2.117	PCR	0.1–0.5 µM
C/C=C(/C)C(=O)O[C@@H]1c2cc(OC)c(OC)c(OC)c2-c2c(cc3c(c2OC)OCO3)C[C@H](C)[C@@]1(C)O	-	-	-	EC50	HepG2.2.15	PCR	12.7 µg/mL
O=C(c1ccc(Br)c(Cl)c1)N1CCc2c(n3nc(Cc4ccccc4)cc3n(-c3ccccc3)c2=O)C1	3 d	-	-	EC50	HepG2.117	PCR	>5 µM
CC(C)Oc1ccc(-n2c(C(=O)N[C@H](C)c3ccccc3)c3n(c2=O)CCN(C(=O)c2ccc(Cl)c(Cl)c2)C3)cc1	-	-	-	EC50	HepG2.117	PCR	0.1–0.5 µM
CNC(=O)c1cnc(-n2c(=O)c3c(n4ncc(Cc5ccccc5)c24)CN(C(=O)c2ccc(Br)c(C(F)(F)F)c2)[C@@H](C)C3)nc1	-	-	-	EC50	HepG2.117	luminescence	≤0.05 µM
CCNC(=O)C(=O)N1CCC(C)(NS(=O)(=O)c2cn(C)c(C(=O)Nc3cc(F)c(F)c(F)c3)c2F)CC1	-	-	-	EC50	HepAD38 cells	PCR	0.1–0.3 µM
C[C@@H](NC(=O)C(=O)N1CCC2(CC1)COc1c(cn(C)c1C(=O)Nc1ccc(F)c(Cl)c1)S(=O)(=O)N2)C(F)(F)F	-	-	Genotype D	EC50	HepAD38	PCR	<0.5 µM
CCNC(=O)C(=O)N1CC[C@@H](NS(=O)(=O)c2cn(C)c(C(=O)Nc3cc(F)c(F)c(F)c3)c2Cl)C(F)(F)C1	-	-	-	EC50	HepAD38 cells	PCR	<0.1 µM
CNC(=O)c1ccc(-n2c(=O)c3c(n4ncc(Cc5ccccc5)c24)CN(C(=O)c2ccc(Br)c(C(F)(F)F)c2)[C@@H](C)C3)cc1	-	-	-	EC50	HepG2.117	luminescence	≤0.05 µM
C[C@H](Cn1cnc2c(N)ncnc21)OCP(=O)(O)O	-	-	-	EC50	HepG2.2.15	ELISA / antigen	19.19 µg/mL
O=C1NCCCn2c1c1n(c2=O)CCN(C(=O)c2ccc(Br)c(F)c2)C1	-	-	-	EC50	HepG2.2.15	PCR	>5 µM
Nc1ccn([C@@H]2CS[C@H](CO)O2)c(=O)n1	-	-	-	EC90	2.2.15	-	0.9 µM
CCOC(=O)C1=C(CN2CC(F)(F)[C@@H]3[C@H]2CON3C[C@@H](OC)C(C)(C)C(=O)O)NC(c2nccs2)=N[C@H]1c1cccc(F)c1Cl	-	-	-	EC50	HepG2.2.15	PCR	0.001 µM
CCNC(=O)C(=O)N1CCC(NS(=O)(=O)c2cn(C)c(C(=O)Nc3ccc(F)c(F)c3)c2F)C(C)C1	-	-	-	EC50	HepAD38 cells	PCR	<0.1 µM
N=c1nc(N)c2ncn([C@@H]3O[C@H](CO)[C@@H](O)[C@H]3O)c2c(N)n1	-	-	-	EC50	2.2.15	antigen	<10 µM
O=C(c1ccc(Br)c(F)c1)N1CCc2c(n3ncc(Cc4ccccc4)c3n(-c3ccccc3)c2=O)C1	3 d	-	-	EC50	HepG2.117	PCR	0.1–0.5 µM
Cc1cc(NC(=O)c2c3c(cn2C)S(=O)(=O)NC2CN(C(=O)C(=O)NCC(F)(F)F)CCC2CO3)ccc1F	-	-	-	EC50	HepAD38	PCR	<0.5 µM
CCOC(=O)C1=C(CN2CC(F)(F)[C@@H]3[C@H]2CON3C[C@@](C)(O)C(=O)O)NC(c2nccs2)=N[C@H]1c1cccc(F)c1C	-	-	-	EC50	HepG2.2.15	PCR	0.282 µM
Cc1cnnn1-c1ccc(-n2c(=O)c3c(n4ncc(Cc5ccccc5)c24)CN(C(=O)c2ccc(Br)c(C(F)(F)F)c2)CC3)cc1	-	-	-	EC50	HepG2.117	luminescence	≤0.05 µM
COC(=O)C1=C(CN2CC(F)(F)[C@H]3[C@@H]2CCN3C[C@@H](O)C(C)(C)C(=O)O)NC(c2nccs2)=N[C@H]1c1cccc(F)c1F	-	-	-	EC50	HepG2.2.15	PCR	0.035 µM
Cn1cc2c(c1C(=O)Nc1cc(F)c(F)c(F)c1)OCC1CN(C(=O)C(N)=O)CC1NS2(=O)=O	-	-	-	EC50	HepAD38	PCR	<0.5 µM
CN1CCCn2c(c3n(c2=O)CCN(C(=O)Nc2ccc(F)c(Cl)c2)C3)C1=O	-	-	-	EC50	HepG2.2.15	PCR	0.5–5 µM
COC(=O)C1=C(CN2CC(F)(F)[C@@H]3[C@H]2CON3C[C@H](O)C(C)(C)C(=O)O)NC(c2nccs2)=N[C@H]1c1ccc(F)c(F)c1C	-	-	-	EC50	HepG2.2.15	PCR	0.045 µM
Cc1cc(NC(=O)c2c3c(c(Cl)n2C)S(=O)(=O)N[C@H]2CN(C(=O)C(=O)N[C@H](C)C(F)(F)F)C[C@H]2CO3)ccc1F	-	-	-	EC50	HepAD38	PCR	<0.5 µM
C[C@@H](NC(=O)C(=O)N1CCC2(COc3c(c(Cl)n(C)c3C(=O)Nc3ccc(F)c(C(F)F)c3)S(=O)(=O)N2)C1)C(F)(F)F	-	-	Genotype D	EC50	HepAD38	PCR	<0.5 µM
COC(=O)C1=C(CN2CC(F)(F)[C@H]3[C@@H]2CCN3CC[C@](C)(O)C(=O)O)NC(c2nccs2)=N[C@H]1c1ccc(F)c(F)c1C	-	-	-	EC50	HepG2.2.15	PCR	0.034 µM
CC(C)Oc1ccc(-n2c(C(=O)NCc3ccccc3)c3n(c2=O)CCN(C(=O)c2ccc(Br)c(Cl)c2)C3)cc1	-	-	-	EC50	HepG2.117	PCR	0.1–0.5 µM
CCONC(=O)C(=O)N1CC[C@@H](NS(=O)(=O)c2cn(C)c(C(=O)Nc3cc(F)c(F)c(F)c3)c2F)C1	-	-	-	EC50	HepAD38 cells	PCR	<0.1 µM
CCOC(=O)C1=C(CN2CC(F)(F)[C@H]3[C@@H]2CCN3CC[C@@](C)(O)C(=O)O)NC(c2nccs2)=N[C@H]1c1ccc(F)c(F)c1Cl	-	-	-	EC50	HepG2.2.15	PCR	0.014 µM
COc1ccc(-n2c(C(=O)NCc3cccc(OC)c3C)c3n(c2=O)CCN(C(=O)c2ccc(Br)c(Cl)c2)C3)cc1	-	-	-	EC50	HepG2.117	PCR	0.1–0.5 µM
CNc1n[nH]c2cc(-n3c(=O)c4c(n5ncc(CC(C)C)c35)CN(C(=O)c3ccc(Br)c(Cl)c3)[C@@H](C)C4)ccc12	-	-	-	EC50	HepG2.117	luminescence	0.05–0.5 µM
Cc1cc(NC(=O)c2c3c(cn2C)S(=O)(=O)N[C@H]2CN(C(=O)C(=O)N4CC(F)(F)C4)C[C@H]2CO3)ccc1F	-	-	-	EC50	HepAD38	PCR	<0.5 µM
CC(C)Cc1cnn2c3c(c(=O)n(-c4ccc(-c5cnnn5C)cc4)c12)C[C@H](C)N(C(=O)c1ccc(Br)c(C(F)(F)F)c1)C3	-	-	-	EC50	HepG2.117	luminescence	0.05–0.5 µM
Cc1cc(NC(=O)c2c3c(cn2C)S(=O)(=O)N[C@H]2CN(C(=O)C(=O)N[C@H](C)C(F)(F)F)C[C@H]2CO3)ccc1F	-	F23Y	-	EC50	HepG2	PCR	0.00633 µM
NC(=O)c1ccc(-n2c(=O)c3c(n4ncc(NCc5ccccc5)c24)CN(C(=O)c2ccc(Cl)c(Cl)c2)CC3)cc1	3 d	-	-	EC50	HepG2.117	PCR	<0.1 µM
Cc1nc(-c2ccc(-n3c(=O)c4c(n5ncc(CC(C)C)c35)CN(C(=O)c3ccc(Br)c(C(F)(F)F)c3)[C@@H](C)C4)cc2)n[nH]1	-	-	-	EC50	HepG2.117	luminescence	0.05–0.5 µM
C[C@@H](NC(=O)C(=O)N1CC[C@@]2(COc3c(cn(C)c3C(=O)Nc3ccc(F)c(Cl)c3)S(=O)(=O)N2)C1)C(F)(F)F	-	-	Genotype D	EC50	HepAD38	PCR	<0.5 µM
C/C=C(/C)C(=O)Oc1c2c(cc3c1-c1c(cc(OC)c(OC)c1OC)C[C@](C)(O)[C@@H](C)C3)OCO2	-	-	-	EC50	HepG2.2.15	ELISA / antigen	32.89 µg/mL

A second listing of 3 rows from above:

| compound | conditions | changes | strain or isolate | endpoint | cell line | read by | value |
|---|---|---|---|---|---|---|---|
| Nc1ccn([C@@H]2CS[C@H](CO)O2)c(=O)n1 | - | - | - | EC90 | 2.2.15 | - | 0.9 µM |
| CNc1n[nH]c2cc(-n3c(=O)c4c(n5ncc(CC(C)C)c35)CN(C(=O)c3ccc(Br)c(C(F)(F)F)c3)[C@@H](C)C4)ccc12 | - | - | - | EC50 | HepG2.117 | luminescence | 0.05–0.5 µM |
| C/C=C(/C)C(=O)Oc1c2c(cc3c1-c1c(cc(OC)c(OC)c1OC)C[C@](C)(O)[C@@H](C)C3)OCO2 | - | - | - | EC50 | HepG2.2.15 | ELISA / antigen | 32.89 µg/mL |